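Phenotypic screen: M. tuberculosis growth, glucose 7H9 medium, 3 days; the read-out is not stated. Tested at 500 µM. The record gives no direction; compounds that gave an IC50 in retests scored well above the rest, so higher reads as more growth inhibition. Size under these conditions: about 18,000 compounds, about 1,400 of them at 50% or above in at least one test.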

The filed quantity is “Percent Effect” (%). How 0% and 100% were set is not recorded. Most values in the screen are low, and negative values occur. The entries come from a sample that favours strong results.

CN1N=C(C(=O)NCc2ccc(Cl)cc2)CCC1=O read 73.36%.
CC1(NC(=O)C2CCC2)CCS(=O)(=O)C1 (centres undefined) read 0.2751%.
Cc1nnc(SCCO)s1 read 2.887%.
CCc1ccnc(C(=O)NC(C)(CO)CO)c1 read 7.293%.
CC(=O)CC1COCCN1S(=O)(=O)c1cccc(F)c1 (centres undefined) read 4.776%.
FC(F)Oc1cccc(N2CCNCC2)c1 read 66.41%.
Cc1ccc(C(=O)C2CCN(S(C)(=O)=O)CC2)cc1 read -2.88%.
CN(C)c1cc(CNS(=O)(=O)c2cccs2)ccn1 read 39.09%.
CCOc1cccc(CN2C(=O)CCC2=O)n1 read 20.46%.
CCNc1nnc(SC(C)C)s1 read 84.03%.
COC(=O)CNC(=O)c1ccc(C)c(-n2cccc2)c1 read 59.59%.
CCN(CC)C(=O)[C@@H]1C[C@@H](N)CN1C(=O)COC read -1.392%.
Cc1ccc(S(=O)(=O)NCCN)cc1Br read 42.12%.
CN1CCCN(C(=O)NCCCN(C)S(C)(=O)=O)CC1 read -4.815%.
CC[C@H](C)[C@H](N)C(=O)NCCc1noc(C(C)C)n1 read 10.18%.
CC(NCCCn1cccn1)c1ccc2c(c1)OCO2 (centres undefined) read 28.67%.
O[C@@H]1CCN[C@@H]1c1ccc(Cl)cc1 read 19.25%.
CCn1c(SCC(N)=O)nnc1-c1cc(Br)cs1 read 86.47%.
CC(Cc1cccs1)C(=O)NC(C)(CO)CO (centres undefined) read 14.16%.
CC(O)CNc1ncccc1I (centres undefined) read 21.13%.
Cc1cnc(NC(=O)c2cnccn2)c(Br)c1 read -7.073%.
CN(C)CCN(C)Cc1ccc(N)nc1 read 6.795%.
O=C1CSc2ccc(C(=O)Nc3nccs3)cc2N1 read 6.983%.
COCc1ccccc1CNC(=O)Nc1ncnn1C read 9.52%.
C=C(C)COc1ccc(C(=O)NCC[C@@H](C)CO)cc1 read 67.6%.
Cc1nnc(CN2CCCC(C(=O)NCC3CC3)C2)o1 (centres undefined) read 2.142%.
CC(C)C1CN(C)CCN1Cc1ccncc1 (centres undefined) read -1.688%.
NCC1(CC(N)=O)CC1 read 10.76%.
CN1C(=O)C[C@H](CN)[C@H]1c1cccnc1 read 3.528%.

Repeated from the top, 2 entries:

compound	Percent Effect
CN1N=C(C(=O)NCc2ccc(Cl)cc2)CCC1=O	73.36
CC1(NC(=O)C2CCC2)CCS(=O)(=O)C1 (centres undefined)	0.2751

The values are deposited in ChEMBL (CHEMBL3988442, “University of Dundee, Small-Polar-MMV Screening Library” (2021)).